The subject of assay [1] is SARS-CoV-2 Spike (S) protein treated human macrophages. The class given is cell-based.
The test system is the same in assay [2]. The assay can be described thus: apoptosis by caspase 3 activation in Spike protein treated macrophages. In kind it is cell-based. To be noted: within 2 hours of treatment.

With “(14S,27S)-22,33-dimethoxy-13,28-dimethyl-2,5,7,20-tetraoxa-13,28-diazaoctacyclo[25.6.2.2^16,19.1^3,10.1^21,25.0^4,8.0^31,35.0^14,39]nonatri-aconta-1(33),3(39),4(8),9,16(38),17,19(37),21,23,25(36),31,34-dodecaene [cepharanthine]”, in assay [1], the “anti-inflammatory cytokines such as IL-10” value is listed as “inducing”; the “pro-inflammatory cytokines VEGF, IL-6, IL-8, GRO, MIP-1α, MIP-1β and MMP-9” value is given as “selectively inhibited”. The “apoptosis by activation of caspase 3” value in assay [2] is “selectively induces apoptosis”.
